Measurements as given in article PMC4207998 (The Journal of Biological Chemistry, 2014).

Biological target: T1, α-toxin (AT), parental construct of the ProteOn study (Staphylococcus aureus (deposit 4U6V: …))
T1 chain: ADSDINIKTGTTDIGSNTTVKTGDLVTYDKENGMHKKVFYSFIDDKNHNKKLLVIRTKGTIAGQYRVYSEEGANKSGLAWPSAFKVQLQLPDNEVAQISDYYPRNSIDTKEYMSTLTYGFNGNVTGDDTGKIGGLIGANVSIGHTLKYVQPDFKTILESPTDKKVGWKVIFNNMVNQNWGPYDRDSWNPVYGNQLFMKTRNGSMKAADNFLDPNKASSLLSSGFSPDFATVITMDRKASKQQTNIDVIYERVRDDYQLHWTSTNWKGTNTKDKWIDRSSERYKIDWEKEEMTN
Assay: SPR

B1: LC10 (antibody, V domains shown)
VH: EVQLVESGGGLVQPGGSLRLSCAASGFTFSSHDMHWVRQATGKGLEWVSGIGTAGDTYYPDSVKGRFTISRENAKNSLYLQMNSLRAGDTAVYYCARDRYSPTGHYYGMDVWGQGTTVTVSS
VL: DIQMTQSPSTLSASVGDRVTITCRASQSISSWLAWYQQKPGKAPKLLIYKASSLESGVPSRFSGSGSGTEFTLTISSLQPDDFATYYCKQYADYWTFGQGTKVEIK
notes: source: generated at MedImmune; copies: 2 + 2
- Kd: 0.01 nM
